PubChem BioAssay AID1259414 | Drosophila RNAi Screening Center, 2018
The deposit covers about 24,000 reagents; this is a random part of those with a known target gene and a result. Of all reagents, about 1,210 (5%) got an active call. 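Inactive calls also include excluded dsRNAs with several or no targets, genes unexpressed in JW18, and well A1, regardless of score.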 Reagents against one gene are numbered here. A plus sign joins genes that one reagent is predicted to hit. No sequences are given here.

Test: 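Host factors increasing or decreasing Wolbachia levels in cultured fly cells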 (primary screen)
Cells: Drosophila JW18 cells infected with Wolbachia
Knock-down reagent: long dsRNA against Drosophila genes, 0.25 µg dsRNA per well of a 384-well plate
Timing: 5 days
Challenge: cells persistently infected with Wolbachia before knock-down; no added drug
Read-out: 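Imaged fluorescence in situ signal for Wolbachia 23S rRNA per DAPI-counted host cell, given as a robust z-score within each plate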
Scale: Wolbachia per cell robust z: higher = more Wolbachia per host cell than the plate typical
Active means: 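Hit when robust z is 1.5 or more, or -1.5 or less, in at least two of three replicates; excludes dsRNAs with several or no targets, genes not expressed in JW18 and well A1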

Target gene	dsRNA no.	Wolbachia per cell robust z, rep 1	Wolbachia per cell robust z, rep 2	Wolbachia per cell robust z, rep 3	Call
CG10300	1	-0.244	-2.34	-7.35	inactive
CG42481	1	0.281	-0.289	-0.998	inactive
CG13625	1	-7.48	-0.267	-0.448	inactive
CG9988	1	0.111	-4.53	-4.96	inactive
CG14647	1	0.318	0.012	-0.0943	inactive
CG14647	2	-0.452	-0.737	-0.853	inactive
CG14630	1	0.634	-0.148	-1.5	inactive
CG14630	2	0.583	-0.857	-0.372	inactive
CG3556	1	0.0656	0.737	-0.916	inactive
CG3556	2	-2.17	-0.389	-5.98	active
Drsl3	1	0.65	-0.617	0.183	inactive
Drsl3	2	0.0596	-1.08	0.417	inactive
CG31821	1	-2.58	-1.93	-0.39	active
CG13751	1	-2.04	-1.91	-0.314	active
Usp1	1	0.799	-9.57	0.809	inactive
Cyp12d1-d + Cyp12d1-p	1	-1.3	-1.1	-1.36	inactive
CG7544	1	-0.536	-0.191	-0.436	inactive
Sur-8	1	-0.12	1.01	0.274	inactive
CG10853	1	0.242	-0.329	-5.78	inactive
CG10853	2	-0.344	-2.04	0.105	inactive
CG17683	1	-0.287	-0.733	0.329	inactive
CG17683	2	-3.14	0.831	-0.00259	inactive
Tsp42En	1	-0.804	0.59	-1.05	inactive
SdhB	1	0.725	0.38	0.249	inactive
SdhB	2	-1.01	-0.375	-1.07	inactive
CG34303	1	0.106	1.48	-0.242	inactive
CG12766	1	0.121	0.538	-0.479	inactive
CG9008	1	1.33	1.86	0.997	inactive
CG9008	2	0.0931	-5.19	-0.512	inactive
CG13033	1	0.161	-0.684	-0.339	inactive
CG13033	2	1.01	0.332	0.886	inactive
Myt1	1	1.3	-0.0413	1.09	inactive
Myt1	2	0.226	-0.332	-0.179	inactive
Obp51a	1	0.199	0.733	0.383	inactive
RpL10	1	1.65	1.01	2.98	active
alpha4GT2	1	-0.0407	-0.585	-0.498	inactive
CG7985	1	-0.542	0.508	-0.692	inactive
CR33629	1	-2.13	-1.69	-0.0239	inactive
CG33228	1	1.06	0.0298	0.217	inactive
CG13404	1	0.989	0.31	-0.776	inactive
CG42383	1	-0.258	0.596	-0.851	inactive
IP3K1 + hpRNA:CR18854	1	-1.2	0.574	-1.02	inactive
prim	1	0.0204	-2.45	-2.07	inactive
clumsy	1	0.415	-0.212	-0.517	inactive
Or33c	1	-4.43	-0.544	-0.835	inactive
l(3)72Dn	1	0.459	-0.39	-0.982	inactive
lace	1	1.39	0.877	2.28	inactive
Cipc	1	0.269	-0.117	0.0396	inactive
Cipc	2	-0.0282	-0.0434	1.32	inactive
ssx	1	3.74	0.129	1.8	active
ssx	2	-0.522	-0.198	-0.586	inactive
ssx	3	-1.03	-0.528	-0.683	inactive
prd1	1	-2.13	0.4	0.775	inactive
CG4763	1	-0.184	-1.44	-7.53	inactive
CG4763	2	0.0756	-0.878	0.136	inactive
Ir94a	1	0.0576	0.749	0.455	inactive
Ir94a	2	-0.798	0.281	-1.38	inactive
bcd	1	-0.175	-0.563	-0.206	inactive
bcd	2	-1.07	1.06	-1.37	inactive
Nep7	1	0.767	0.623	0.043	inactive
Nep7	2	-0.704	0.647	0.668	inactive
in	1	-2.34	0.0166	-2	inactive
Dfd	1	-0.00261	-0.562	-0.767	inactive
Dfd	2	0.35	-0.659	-0.616	inactive
Bsg	1	-0.438	-1.33	-0.471	inactive
Bsg	2	-0.84	-0.176	0.14	inactive
Bsg	3	0.45	0.844	0.236	inactive
Ilp4	1	-1.84	0.727	0.676	inactive
Ilp4	2	0.0421	-0.345	0.284	inactive

A few values from above.
Value for SdhB #1 under “Wolbachia per cell robust z, rep 1”: 0.725
CG4763 #1, Wolbachia per cell robust z, rep 3 = -7.53
For “Wolbachia per cell robust z, rep 2”, Cipc #2 shows -0.0434
Entry of Ilp4 #1 in “Call”: inactive
Entry for Obp51a in “Wolbachia per cell robust z, rep 3”: 0.383
For “Wolbachia per cell robust z, rep 1”, CG34303 is entered as 0.106
